Data taken from paper PMC10524804.

What was measured:
CpxR [1] = target: T1, CpxR (UniProt A0A0H3GGB5); test: EMSA; details: EMSA: Beyotime binding buffer (poly(dI-dC), DTT, glycerol, EDTA, NaCl, MgCl2, Tris), room temp, 2 pmol probe, recombinant protein, probe letters rebuilt from the primers and the genome
T1 sequence: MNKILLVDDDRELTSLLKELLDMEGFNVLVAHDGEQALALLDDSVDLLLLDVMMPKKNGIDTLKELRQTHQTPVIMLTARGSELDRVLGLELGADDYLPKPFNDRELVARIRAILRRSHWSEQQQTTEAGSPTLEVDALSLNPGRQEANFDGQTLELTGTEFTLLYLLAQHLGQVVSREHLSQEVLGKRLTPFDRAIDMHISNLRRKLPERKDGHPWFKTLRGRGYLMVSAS

CpxR [2] = target: T1, CpxR; test: DNase I footprinting; details: footprinting: 50 mM Tris-HCl pH 8.0, 100 mM KCl, 2.5 mM MgCl2, 0.2 mM DTT, 10% glycerol, 2 ug salmon sperm DNA, 25 C, recombinant protein, probe letters rebuilt from the primers and the genome
CpxR [3] = target: T1, CpxR; test: ITC; details: 0.1 uM protein, 0.01 uM DNA, Kd shown only in figure; ITC: HEPES pH 7.4, 25 C; recombinant protein; probe letters rebuilt from the primers and the genome
[4] = label: 5'-FAM on PtraY-FAM-F strand

## CAACGATATTCCTTGTTTGAAGGTGGAGCTAGGTGTAGCGGCCGGATGTAATCAGGCCGCTACAGCTGGGATTAGGGGTCTGACGCTCAGTGGAACGAAAACTCACGTTAAGAAGTCATTTTTCAATATTATTGAAGCATTTATCAGGGTTATTGTCTCATGAGCGGATACATATTTGAATGTATTTAGAAAAATAAACAAATAGGGGTTCCGCGCACATTTCCCCGAAAAGTGCCACCTGACGTCTAAGAAACCATTATTATCATGACATTAACCTATATGTCAAGACCCGGCTGGTTATACACGCGTTTCCTGAACAATTCAGGGCGTTTTTCATGCCATTCCTTGAGCGCCTGAACGGGTGTTTTGTGTTGGAGCGCGCGTTGCGGAATGCTGTGGTTGT (double strand) [PblaKPC (Tn1721, ST11), FAM]
CpxR [1]; label: 5'-6-FAM on forward strand (Pkpc403-FAM-F)
  binding result: binds
CpxR [2]; two protected regions, R1 and R2, label: 5'-6-FAM on forward strand (Pkpc403-FAM-F)
  binding result: binds

## CAACGATATTCCTTGTTTGAAGGTGGAGCTAGGTGTAGCGGCCGGATGTAATCAGGCCGCTACAGCTGGGATTAGGGGTCTGACGCTCAGTGGAACGAAAACTCACGTTAAGAAGTCATTTTTCAATATTATTGAAGCATTTATCAGGGTTATTGTCTCATGAGCGGATACATATTTGAATGTATTTAGAAAAATAAACAAATAGGGGTTCCGCGCACATTTCCCCGAAAAGTGCCACCTGACGTCTAAGAAACCATTATTATCATGACATTAACCTATATGTCAAGACCCGGCTGGTTATACACGCGTTTCCTGAACAATTCAGGGCGTTTTTCATGCCATTCCTTGAGCGCCTGAACGGGTGTTTTGTGTTGGAGCGCGCGTTGCGGAATGCTGTGGTTGT (double strand) [PblaKPC (Tn1721, ST11), unlabeled]
CpxR [3]
  binding result: binds

## CAACGATATTCCTTGTTTGAAGGTGGAGCTAGGTGTAGCGGCCGGATGTAATCAGGCCGCTACAGCTGGGATTATCACCGAGCTTGAAAAACGAATCAGGTCGGCGTTCATGGGTCGGCCACCTCGCCTGACCTCGGCATCCACGTTACGGACGGCCTCAGGAAGTCCTGGCCAAGCCCCGACTATTGGGGCGCGAAGATAGCACCGAGGGTACGCCGGTGTCAACACCAACTGAAAACTGACCCACTTTACCCCTGAATCACCAAAGTAATACTGACCCACCTGGATCATTCGGGTTTGGAATTTTTCCTGACCACTCCCGCCTTCCTCTTGTCCTTCAAGCGGTAGCTTTC (double strand) [PblaKPC Tn4401b (ST258), FAM]
CpxR [1]; label: 5'-FAM on reverse strand (PkpcTn4401b-FAM-R)
  binding result: binds

## CTGCTTCTGTCTTTTGCTTTGATGAGTCGACGATTAGTTTCTTCATCTAATTTTAAAAGCACATTTTTTCCAGGCGCAGGTCGTGCGTTGCTCCTAATCGCTCTTTCCAATCGACCTCCAAAGTAAGATTACCAACCTTTAATAAATCTTACATTGGAGGATTTAAAAGTAAACAAACTAAGGAGAAATCTTGAGTAAATTATTTTCACAAATCAAAAGTACCGATGGTACTTTTGATTTAACAAAAAATTAACACCGTCTTTTAATATCGAAACCACATTCGATATAAACTTTCCATAACTTAGAGTATAGATCGATGACATTATGATATAGTCACGATCATCAAAGCTCAGTTCCTTTTTTATTTTACTAACTGTATTTTTTGAGGTTTGCACCCCAACACCTGTAATCTTAGAAATAGATGCATGAGAAAACCCAACCGCATACAGATTAAAGATAGCCCAGTCAGACTTTGCTGAACGCTGAATTCTTTCGATATATCTTTGCATCTTTATAGAAAAGTCATTGTATTCCATTGAAGGATGAGGTATCGGTTCATCTTCATTTATAAAAACCCATTTACTGTATGTATCTTCATTAATCGAGAACGTTTCAATAAAAACAGTCCAAAGTGAACCTGCCAACCAAATATTTTTAACAAGTACAGCAGAACCTTCTGAAAACGATTTCAGTTCTGACTGCATC (double strand) [PtraY, FAM]
CpxR [1]; [4]
  binding result: binds
CpxR [2]; [4]
  binding result: binds

Where a protein sequence is shown, tags need not be part of it.
